Results as given in patent US4141989A, “Fungicidal 3-(N-chloroacetyl-N-arylamino)-gamma-butyrolactone compositions” (Chevron Research Company, priority 1977, dated 1979).

Key:
Type in all cases: in vivo
[1] = test system: Plasmopara viticola; experiment: Preventive grape downy mildew control, detached Emperor leaves (Example 5, Table I)
[2] = test system: Peronospora parasitica ssp. brassicae; experiment: Preventive control of cabbage downy mildew (Example 14, Table IX); conditions: 160 g a.i./hl
[3] = test system: Peronospora parasitica ssp. brassicae; experiment: Curative control of cabbage downy mildew (Example 14, Table IX); conditions: 160 g a.i./hl
[4] = test system: Phytophthora cryptogea; experiment: Snapdragon crown and root rot control, foliar spray (Example 16, Table XI); conditions: 100 ppm
[5] = test system: Phytophthora cryptogea; experiment: Snapdragon crown and root rot control, soil drench (Example 16, Table XI); conditions: 100 ppm
[6] = test system: Plasmopara viticola; experiment: Eradicant downy mildew control on Emperor and Carignane grape leaves (Example 9, Table IV)
[7] = test system: Plasmopara viticola; experiment: Preventive grape downy mildew control, detached Cabernet Sauvignon leaves (Example 7, Table II)
[8] = test system: Plasmopara viticola; experiment: Eradicant grape downy mildew control, detached Emperor leaves (Example 6, Table I)
[9] = test system: Bremia lactucae; experiment: Control of lettuce downy mildew (Example 13, Table VIII); conditions: 160 g active/hl
[10] = disease reduction relative to check flat
[11] = Carignane leaves, treated 3 days after inoculation
[12] = Emperor leaves, treated 1 day after inoculation
[13] = Emperor leaves, treated 2 days after inoculation

With `O=C1[C@H]2CC=CC[C@H]2C(=O)N1SC(Cl)(Cl)C(Cl)Cl` (relative stereo) the “Preventive Grape Downy Mildew Control, %” value ([1]; 40 ppm, sprayed before inoculation) was 84%, the “Preventive ED50 (ppm of applied spray for 50% control)” value ([1]; preventive) was 22 ppm and the “Preventive ED90 (ppm of applied spray for 90% control)” value ([1]; preventive) was 54 ppm. For the same compound, the “% Diseased Seedlings” value [2] was 59.6%, the “% Control” value [2, 10] was 38.9% and the “% Diseased Seedlings” value [3] was 65.5%. For the same compound, the “% Control” value [3, 10] was 32.9%, the “% Control” value [4] was 0% and the “% Control” value [5] was 0%. For the same compound, the “Eradication ED50 (ppm of applied spray for 50% control)” value [6, 11] was 206 ppm, the “Eradication ED90 (ppm of applied spray for 90% control)” value [6, 11] was 670 ppm and the “Eradication ED50 (ppm of applied spray for 50% control)” value [6, 12] was 55 ppm. For the same compound, the “Eradication ED90 (ppm of applied spray for 90% control)” value [6, 12] was 145 ppm, the “Eradication ED50 (ppm of applied spray for 50% control)” value [6, 13] was 64 ppm and the “Eradication ED90 (ppm of applied spray for 90% control)” value [6, 13] was 168 ppm. The “Percent Control” value ([7]; 6.4 ppm) was 95.3%, the “Percent Control” value ([7]; 16 ppm) was 98.8% and the “Percent Control” value ([7]; 40 ppm) was 96.5%. The “Eradicative Grape Downy Mildew Control, %” value ([8]; 200 ppm, sprayed 2 days after inoculation) was 74%, the “Eradicative ED50 (ppm of applied spray for 50% control)” value ([8]; eradicative) was 100 ppm and the “Eradicative ED90 (ppm of applied spray for 90% control)” value ([8]; eradicative) was 310 ppm. The “% Control” value [9] was 85.2% and the “% Dead Seedlings” value [9] was 3.6%.
